In patent publication US20230158060:

Assays:
[1] = target: purified MERS-CoV N protein, K9N4V7

B1: purified MASP-2 (protein)
chain: TPLGPKWPEPVFGRLASPGFPGEYANDQERRWTLTAPPGYRLRLYFTHFDLELSHLCEYDFVKLSSGAKVLATLCGQESTDTERAPGKDTFYSLGSSLDITFRSDYSNEKPFTGFEAFYAAEDIDECQVAPGEAPTCDHHCHNHLGGFYCSCRAGYVLHRNKRTCSALCSGQVFTQRSGELSSPEYPRPYPKLSSCTYSISLEEGFSVILDFVESFDVETHPETLCPYDFLKIQTDREEHGPFCGKTLPHRIETKSNTVTITFVTDESGDHTGWKIHYTSTAQPCPYPMAPPNGHVSPVQAKYILKDSFSIFCETGYELLQGHLPLKSFTAVCQKDGSWDRPMPACSIVDCGPPDDLPSGRVEYITGPGVTTYKAVIQYSCEETFYTMKVNDGKYVCEADGFWTSSKGEKSLPVCEPVCGLSARTTGGRIYGGQKAKPGDFPWQVLILGGTTAAGALLYDNWVLTAAHAVYEQKHDASALDIRMGTLKRLSPHYTQAWSEAVFIHEGYTHDAGFDNDIALIKLNNKVVINSNITPICLPRKEAESFMRTDDIGTASGWGLTQRGFLARNLMYVDIPIVDHQKCTAAYEKPPYPRGSVTANMLCAGLESGGKDSCRGDSGGALVFLDSETERWFVGGIVSWGSMNCGEAGQYGVYTKVINYIPWIENIISDF
**Q.** With B1 as the protein, how does the “SARS-CoV-potentiated C4 hydrolysis (immunoblot)” value (C1INH) read?
**A.** The value was “blocked SARS-CoV-potentiated C4 hydrolysis”.

**Q.** What about the “C4 cleavage (immunoblot)” value [1] of the same protein?
**A.** Its value is “MERS-CoV N also found potentiate the C4 cleavage”.
